This note sets out measurements from US20170303554A1, “METHOD OF SANITIZING EDIBLE SEEDS, PARTICULARLY MUCILAGE PRODUCING SEEDS” (AGRI-NEO INC., priority 2014, published 2017).

Data set [1] in a line: Organoleptic assessment of treated seeds (Example 1). To be noted: 40 L/tonne.
Data set [2] can be described thus: Physical characteristics of treated seeds, incl. mucilage (Example 1). The conditions noted are these: 40 L/tonne.

With `CCO` [2- Alcohol - ethanol, ethanol], the Organoleptic entry in data set [1] (black pepper) is reported as “No effect”; in data set [1] (chia seeds) it was “No mucilage”; in data set [1] (flax seeds), “No mucilage”; in data set [1] (hemp), “No effect”; in data set [1] (pea fiber), “No effect”; in data set [1] (sprouted flax and chia), “No mucilage”. For the same compound, the Organoleptic result in data set [1] (vanilla), in data set [1] (whole dried pea) and in data set [1] (whole split pea) was “No effect” each time. Also, the “Physical Characteristics” value is recorded as “No effect” in data set [2] (black pepper); “No mucilage” in data set [2] (chia seeds); “No mucilage” in data set [2] (flax seeds); “No effect” in data set [2] (hemp); “No effect” in data set [2] (pea fiber); “No mucilage” in data set [2] (sprouted flax and chia). Besides, the “Physical Characteristics” value in data set [2] (vanilla), in data set [2] (whole dried pea) and in data set [2] (whole split pea) was “No effect” each time.
